The subject of one data set is HeLa cells. The data set can be described thus: LDH release assay for HeLa cytotoxicity. To be noted: cytotoxicity IC50 divided by the MIC against MRSA-1707. For orientation: LDH in the medium is a marker of cell lysis.
Data set [1] in a line: UV-Vis metal(II) binding. The data set is classed as physicochemical. Also on record: key to Zinc(II) Binding Y/N: UV-Vis results are reported as “Binding Y/N” for HPs; UV-Vis results are reported as “Binding Y/N” for HPs. The conditions noted are these: for Zinc(II) Binding Y/N: UV-Vis; for zinc(II) binding (UV-Vis): in words.
The nature of data set [2]: UV-Vis metal(II) binding. It counts as physicochemical. Also on record: key: UV-Vis results are reported as “Binding Y/N” for HPs; UV-Vis results are reported as “Binding Y/N” for HPs.
A short description of data set [3]: UV-Vis metal(II) binding. It counts as physicochemical. Also on record: key to Magnesium(II) Binding Y/N: UV-Vis results are reported as “Binding Y/N” for HPs; UV-Vis results are reported as “Binding Y/N” for HPs. The conditions noted are these: for Magnesium(II) Binding Y/N: UV-Vis; for magnesium(II) binding (UV-Vis): in words.
The nature of data set [4]: UV-Vis metal(II) binding. It counts as physicochemical. Also on record: key: UV-Vis results are reported as “Binding Y/N” for HPs; UV-Vis results are reported as “Binding Y/N” for HPs. This is another data set of the same source.
In the next data set the test system is VRE 700221. The data set can be described thus: MIC, broth microdilution (CLSI). A general note: Dilution methods test growth across graded concentrations, often in twofold steps.
The test system of the next data set is MRSA BAA-1707. The data set can be described thus: Metal(II)-cation co-treatment MIC assay. The conditions noted are these: metal(II) at 200 μM. The data set is classed as cell-based, Staphylococcus aureus.

With `CC1=C(C)C(=O)C(COC(=O)OCOc2c(Br)cc(Br)c3nc4cc(Cl)ccc4nc23)=C(C)C1=O` [87A], in the data set on HeLa cells, the “Selectivity Index” value is recorded as more than 667.

On to `CCN(CC)c1ccc2nc3c(O)c(Br)cc(Br)c3nc2c1Br` [Compound 64A], for which, in the data set with HeLa cells, the “Selectivity Index” value is more than 667.

As to `Oc1c(Br)cc(Br)c2nc3ccccc3nc12` [HP 1, 2,4-dibromophenazin-1-ol], in “UV-Vis metal(II) binding [1]”, the “Zinc(II) Binding Y/N” value is on record as “Y” and the “zinc(II) binding (UV-Vis)” value is “bind”. For the same compound, the “Copper(II) Binding Y/N” value in “UV-Vis metal(II) binding [2]” is given as “Y”. In the data set “UV-Vis metal(II) binding [3]”, the “Magnesium(II) Binding Y/N” value is given as “N” and the “magnesium(II) binding (UV-Vis)” value is “but not magnesium(II)”. In addition, the “Iron(II) Binding Y/N” value in the data set “UV-Vis metal(II) binding [4]” is on record as “Y”.

For `Oc1c(Br)cc(Br)c2nc3ccc(Oc4ccccc4)cc3nc12` [HP 1-16], the “fold increase in antibacterial activities compared to HP 1” value in the data set with VRE 700221 was determined as 2 fold.

With `Cc1cccc2nc3c(O)c(Br)cc(Br)c3nc12` [HP 1-17], in “UV-Vis metal(II) binding [1]”, the “Zinc(II) Binding Y/N” value was “Y” and the “zinc(II) binding (UV-Vis)” value was “bind”. For the same compound, in “UV-Vis metal(II) binding [2]”, the “Copper(II) Binding Y/N” value is “Y”. In the data set “UV-Vis metal(II) binding [3]”, the “Magnesium(II) Binding Y/N” value was “N” and the “magnesium(II) binding (UV-Vis)” value was “but not magnesium(II)”. Further, the “Iron(II) Binding Y/N” value in “UV-Vis metal(II) binding [4]” is “Y”.

`Oc1c(Br)cc(Br)c2nc3c(Cl)cccc3nc12` [HP 1-21]: in the data set “UV-Vis metal(II) binding [1]”, the “Zinc(II) Binding Y/N” value is “Y” and the “zinc(II) binding (UV-Vis)” value is given as “bind”. In “UV-Vis metal(II) binding [2]”, the “Copper(II) Binding Y/N” value is recorded as “Y”. In addition, in the data set “UV-Vis metal(II) binding [3]”, the “Magnesium(II) Binding Y/N” value is “N” and the “magnesium(II) binding (UV-Vis)” value is listed as “but not magnesium(II)”. For the same compound, in the data set “UV-Vis metal(II) binding [4]”, the “Iron(II) Binding Y/N” value is on record as “Y”.

Take `COCCOCCOCCOCCOC(=O)Oc1c(Br)cc(Br)c2nc3c(C)cccc3nc12` [HP 1-25]: in “UV-Vis metal(II) binding [1]”, the “Zinc(II) Binding Y/N” value was “N” and the “zinc(II) binding (UV-Vis)” value is recorded as “does not bind”. Besides, the “Copper(II) Binding Y/N” value in “UV-Vis metal(II) binding [2]” was “N”. In “UV-Vis metal(II) binding [3]”, the “Magnesium(II) Binding Y/N” value is reported as “N” and the “magnesium(II) binding (UV-Vis)” value is listed as “does not bind”. For the same compound, the “Iron(II) Binding Y/N” value in the data set “UV-Vis metal(II) binding [4]” was “N”.

Take `c1ccc(CN(CCN(Cc2ccccn2)Cc2ccccn2)Cc2ccccn2)nc1` [TPEN, N,N,N′,N′-tetrakis(2-pyridylmethyl)ethane-1,2-diamine, reference compound]: in the data set on MRSA BAA-1707, the “fold elevated MIC with copper(II), iron(II) and zinc(II)” value is given as 3- to 11 fold.

The record behind these values is US11053205B2, “Phenazine derivatives as antimicrobial agents” (University of Florida Research Foundation, Incorporated, priority 2017, dated 2021).
